# Laboratory results: patent US20140227335A1 (priority 2012, published 2014)
# Read-outs that look alike come from different tables or passages of the source.
# Tests used:
# Jc1 HCVcc = experiment: HCVcc infection assay (Gluc reporter, Huh-7.5 cells); assay type: cell-based, HCV
# VSV-Gpp [1] = experiment: VSV-Gpp virion lysis (RNase A, viral RNA by qRT-PCR); design: species or system HIV lentivirus pseudotyped with VSV-G
# VSV-Gpp [2] = experiment: VSV-Gpp infectivity after PD pre-treatment (spinoculation of Huh-7.5 cells); assay type: cell-based, HIV lentivirus pseudotyped with VSV-G; conditions: for IC50: read-out: IC50 for VSV-Gpp
# [3] = tested on: primary isolates of HIV and SIV; experiment: HIV-1, HIV-2, SIV infectivity assays in TZM-bl cells (all isolates, summary); assay type: cell-based
# HIV-1 = experiment: Drug resistance study in freshly activated human PBMCs; conditions: freshly activated human PBMCs (2 donors), 12 days (data not shown)
# [4] = 150 μM PD, 37° C., 30 min, RNase A
smiles,measurement,setting,value
"N=C1Sc2ccccc2C2=NCCCN12 [PD, PD 404,182]",selectivity index (CC50/IC50) for HCV,Jc1 HCVcc,> 27
same,RNase-mediated degradation of VSV-Gpp RNA relative to DMSO-treated virus,VSV-Gpp [1]; [4],30 fold
same,VSV-Gpp RNA remaining,VSV-Gpp [1]; [4],3.7%
same,virions lysed (genomic RNA release),"VSV-Gpp [1]; 300 μM PD, 5 min virus-PD pre-incubation",40%
same,loss of viral infectivity,VSV-Gpp [2]; less than 5 min of incubation with virus,> 99%
same,IC50,VSV-Gpp [2]; virus stock diluted 5-fold in fresh complete growth medium,4600 nM
same,IC50,VSV-Gpp [2]; virus stock diluted 500-fold in fresh complete growth medium,500 nM
same,therapeutic index / selectivity index (CC50/IC50) for HIV,[3],> 300
same,emergence of viral resistance,HIV-1,no emergence of viral resistance was observed
